Some ranges recur; such a range may be that of the whole group of compounds.
How the values were obtained:
[1] = test system: SW620 (human metastatic colon cancer); experiment: MTT cytotoxicity assay; assay type: cell-based; settings: HaCaT versus SW620
Protocol: (§1) The human cell lines SW480 (primary colon cancer), SW620 (lymph node metastatic colon cancer from the same patient as primary cancer cells), HCT116 (colon carcinoma), HepG2 (liver cancer), and HaCaT (immortalized keratinocytes) were obtained from the American Type Culture Collection (ATCC, Rockville, MD, USA). The SW480, SW620 and HCT116 cells were grown in MEM (ThermoSci, Waltham, MA, USA), HepG2 and HaCaT in DMEM High Glucose (Biowest SAS, Nuaillé, France) supplemented with 10% foetal bovine serum (FBS), HEPES (20 mM), and antibiotics (100 U mL^−1 of Penicillin and 100 μg mL^−1 of Streptomycin). The cells were incubated in a humidified incubator at 37 °C/5% CO2, until 80–90% confluence was reached.
The cell viability was assessed by using of MTT salt [3-(4,5-dimethylthiazol-2-yl)-2,5-diphenyltetrazolium bromide] converted by mitochondrial dehydrogenase, occurring in living cells. […] The untreated cells were used as the control.
(§2) Subsequently, the medium was removed and dimethyl sulfoxide (DMSO) with isopropanol (1:1) was added to dissolve the formazan crystals. The optical density was measured using UVM 340 reader (ASYS Hitech GmbH, Eugendorf, Austria) at a wavelength of 570 nm. The experiments were repeated three times. The cell viability was calculated as the percent of MTT reduced in treated cells versus control cells (untreated cells). The number of viable cells cultured without tested compounds was assumed as 100%. A decreased relative MTT level indicates decreased cell viability. The IC50 values were estimated using CompuSyn version 1.0.

[2] = test system: HCT116 (human colon cancer); experiment: MTT cytotoxicity assay; assay type: cell-based; settings: HaCaT versus HCT116
Protocol: as §1
(§3) The cell viability was assessed by using of MTT salt [3-(4,5-dimethylthiazol-2-yl)-2,5-diphenyltetrazolium bromide] converted by mitochondrial dehydrogenase, occurring in living cells. The cells were seeded in 96-well plates at a density of 1 × 10^4 cells per well and allowed to adhere for 24 h at 37 °C in a CO2 humidified incubator. […]. The untreated cells were used as the control.
as §2, with “After 72 h incubation, the medium was replaced with 200 µL per well of free-serum medium containing 0.5 mg mL^−1 MTT and incubated for 4 h at 37 °C in a CO2 humidified incubator. Subsequently,” for “Subsequently,”

[3] = test system: SW480 (human primary colon cancer); experiment: MTT cytotoxicity assay; assay type: cell-based; settings: HaCaT versus SW480
Protocol: as §1, §3
as §2, with “After 72 h incubation, the medium was replaced with 200 µL per well of free-serum medium containing 0.5 mg mL^−1 MTT and incubated for 4 h at 37 °C in a CO2 humidified incubator. Subsequently,” for “Subsequently,”

[4] = test system: HepG2 (human liver cancer); experiment: MTT cytotoxicity assay; assay type: cell-based; settings: HaCaT versus HepG2
Protocol: as §1, §3
as §2, with “After 72 h incubation, the medium was replaced with 200 µL per well of free-serum medium containing 0.5 mg mL^−1 MTT and incubated for 4 h at 37 °C in a CO2 humidified incubator. Subsequently,” for “Subsequently,”

[5] = test system: cancer cells (HepG2, HCT-116, SW480, SW620) versus HaCaT; experiment: MTT assay, selectivity over the cancer cell panel; assay type: cell-based, human; settings: range over HepG2, HCT116, SW480, SW620

| Compound | SI SW620 (IC50 for normal cell line/IC50 cancer cell line) [1] | SI HCT116 (IC50 for normal cell line/IC50 cancer cell line) [2] | SI SW480 (IC50 for normal cell line/IC50 cancer cell line) [3] | SI HepG2 (IC50 for normal cell line/IC50 cancer cell line) [4] | SI range over cancer cell lines [5] |
| --- | --- | --- | --- | --- | --- |
| CC(C)[C@@H]1CC[C@@H](C)C[C@H]1OC(=O)CCCCOC(=O)c1cn(C2CC2)c2cc(N3CCN(CCCCC(=O)O[C@@H]4C[C@H](C)CC[C@H]4C(C)C)CC3)c(F)cc2c1=O [Compound 7, 5-((1R,2S,5R)-2-isopropyl-5-methylcyclohexyloxy)-5-oxopentyl-1-cyclopropyl-6-fluoro-7-{4-[5-((1R,2S,5R)-2-isopropyl-5-methylcyclohexyloxy)-5-oxopentyl]piperazin-1-yl}-4-oxo-1,4-dihydroquinoline-3-carboxylate] | 0.4 | 0.5 | 0.6 | 0.8 |  |
| Cc1ccc(C(C)C)c(OC(=O)CCCCCOC(=O)c2cn(C3CC3)c3cc(N4CCN(CCCCCC(=O)Oc5cc(C)ccc5C(C)C)CC4)c(F)cc3c2=O)c1 [Compound 16] | 1.3 | 2.1 | 2.2 | 1.5 | 1.9–3.4 |
| CC(C)[C@@H]1CC[C@@H](C)C[C@H]1OC(=O)CCCCCOC(=O)c1cn(C2CC2)c2cc(N3CCN(CCCCCC(=O)O[C@@H]4C[C@H](C)CC[C@H]4C(C)C)CC3)c(F)cc2c1=O [Compound 8, 6-((1R,2S,5R)-2-isopropyl-5-methylcyclohexyloxy)-6-oxohexyl-1-cyclopropyl-6-fluoro-7-{4-[6-((1R,2S,5R)-2-isopropyl-5-methylcyclohexyloxy)-6-oxohexyl]piperazin-1-yl}-4-oxo-1,4-dihydroquinoline-3-carboxylate] | 0.7 | 1.1 | 0.4 | 1.1 |  |
| 2-(2-isopropyl-5-methylphenoxy)-2-oxobutyl-1-cyclopropyl-6-fluoro-7-{4-[2-(2-isopropyl-5-methylphenoxy)-2-oxobutyl]piperazin-1-yl}-4-oxo-1,4-dihydroquinoline-3-carboxylate [Compound 15] | 1.1 | 1.4 | 1.6 | 1.1 |  |

Source: PMC9224473 (International Journal of Molecular Sciences, 2022)
